Data taken from paper PMC8705652, “Widespread Distribution and Adaptive Degradation of Microcystin Degrader (mlr-Genotype) in Lake Taihu, China” (Toxins, 2021).

Assays:
[1] = test system: Sphingopyxis N5; design: species or system Sphingopyxis sp. strain N5
[2] = test system: Sphingosinicella 7CY; conditions: cited from earlier work
[3] = test system: Rhodococcus C1; conditions: cited from earlier work
[4] = test system: Arthrobacter C6; conditions: cited from earlier work
[5] = test system: Brevibacterium F3; conditions: cited from earlier work
[6] = test system: Arthrobacter F7; conditions: cited from earlier work
[7] = test system: Arthrobacter R4; conditions: cited from earlier work
[8] = test system: Paucibacter DSMZ-16998; conditions: cited from earlier work
[9] = test system: Sphingopyxis MB-E; conditions: cited from earlier work

Row | Substance | degradative activity within 24 h [1] | half-life (t1/2) [2] | half-life (t1/2) [3] | half-life (t1/2) [4] | half-life (t1/2) [5] | half-life (t1/2) [6] | half-life (t1/2) [7] | half-life (t1/2) [8] | Degradation Rate [9]
1 | MC-LF | no significant degradative activity | ~79.2 h | 190 h | 190 h | 170 h | 140 h | 170 h | 140 h | 6.25 × 10^−4) mg/(L·h)
2 | MC-LW | no significant degradative activity | ~79.2 h | 140 h | 190 h | 220 h | 170 h | 140 h | 170 h | 6.25 × 10^−4) mg/(L·h)
